A mixed list of measured activities; the numbers were collected in NIAID ChemDB.

All rows: whole-cell or culture tests; organism: Mycobacterium tuberculosis

Rows are shuffled and stem from different studies. Inhibition is in % at the dose shown (toxicity tests: loss of growth or viability). ECn: concentration that inhibits the pathogen or its effect by n%. MIC bound: limit read from a one-dose screen. Blank or dashed fields: not listed here. A number after MIC or MFC names an inhibition level or a share of isolates.

SMILES	dose	changes	strain	cell line	read by	read-out	setting	value
CC[C@H]1OC(=O)[C@H](C)[C@@H](O[C@H]2C[C@@](C)(OC)[C@@H](O)[C@H](C)O2)[C@H](C)[C@@H](O[C@@H]2O[C@H](C)C[C@H](N(C)C)[C@H]2O)[C@](C)(OC)C[C@@H](C)C(=O)[C@H](C)[C@@H](O)[C@]1(C)O	-	-	-	-	-	MIC50	-	>10 µg/mL
C=C(C)/C=C/[C@]12C[C@H](C)C3CC[C@](C)(NC=O)[C@@H](CC[C@H]1C)[C@@H]32	-	-	H37Rv	-	resazurin	MIC100	-	32 µg/mL
O=C(Nc1ccc(Br)cc1)c1cc(Cl)ccc1OP(=O)(Oc1ccccc1)Oc1ccccc1	-	-	My 331/88	-	-	MIC	14 d	8 µM
Cc1ccccc1NC(=S)NNC(=O)c1ccncc1	-	-	INH resistant	-	-	MIC	-	10.88 µM
CC1COc2c(N3CCN(C)CC3)c(F)cc3c(=O)c(C(=O)O)cn1c23	-	-	H37Rv	-	resazurin	MIC	-	2.16 µM
CC[C@@H](CO)NCCN[C@@H](CC)CO	-	-	H37Rv	-	-	MIC	-	1 µg/mL
COc1ccc(-c2oc3cc(F)ccc3c(=O)c2OC(C)=O)cc1	-	-	H37Rv	-	-	MIC	-	>12.5 µg/mL
NNC(=O)c1ccncc1	-	-	H37Rv	-	resazurin	MIC	-	0.66 µM
O=C1c2cc(Cl)ccc2OP(=O)(c2ccccc2)N1c1ccc(C(F)(F)F)cc1	-	-	Praha 131	-	-	MIC	14 d	1 µM
CC1COc2c(N3CCN(C)CC3)c(F)cc3c(=O)c(C(=O)O)cn1c23	-	-	100 isolates	-	-	MIC50	-	1 µg/mL
O=C(CSc1nc2ccc(Cl)cc2c(=O)n1-c1ccccc1)N=Nc1c(O)[nH]c2ccc(Br)cc12	-	-	H37Rv	-	-	EC50	-	<12 µg/mL
N#Cc1nc(CSc2ccc(Cl)cc2)cnc1N	-	-	H37Rv	-	BACTEC	MIC bound	-	>12.5 µg/mL
COc1cccc2c(Nc3ccc(S(=O)(=O)c4ccc(NC(C)=O)cc4)cc3)ccnc12	-	-	Strain 2 (MDR)	-	-	MIC	-	0.5 µg/mL
CCCCN1C(=O)C(C)S/C1=N\N=C1/C(=O)Nc2ccccc21	12 µg/mL	-	H37Rv	-	-	inhibition	-	14%
COc1ccc(C(F)(F)F)cc1NCc1cnc2nc(N)nc(N)c2c1C	-	-	H37Rv	-	-	MIC	-	1.56 µg/mL
COc1ccc2[nH]c3c(C)c4ccncc4c(C)c3c2c1	-	-	INH-r	-	-	MIC	-	0.2 µg/mL
Cc1cc(CN2CCN(C(c3ccccc3)c3ccccc3)CC2)c(-c2ccc(Cl)cc2)n1-c1ccc(F)cc1F	-	-	27294	-	-	MIC	-	>16 µg/mL
CCc1c(CNc2cc(C)ccc2OC)cnc2nc(N)nc(N)c12	-	-	H37Rv	-	-	MIC	-	>12.5 µg/mL
COC(=O)[C@H](Cc1cn(C(O)(NC(=O)OCc2ccccc2)C(F)(F)F)cn1)NC(=O)[C@@H](NC(=O)[C@H](CC(C)C)NC(=O)[C@@H](CSC(c1ccccc1)(c1ccccc1)c1ccccc1)NC(=O)OCc1ccccc1)C(C)C	6.25 µg/mL	-	H37Rv	-	resazurin	inhibition	-	37%
O=C(CCC(F)(F)F)N1CCC(F)(c2cccnc2)CC1	-	-	H37Rv	THP-1	fluorescence	EC50	-	<0.05 µM
C=CCNC(=S)N=Nc1c(O)[nH]c2ccc(Br)cc12	-	-	H37Rv	-	-	MIC	-	>12.5 µg/mL
COc1ccc(-c2cc(=O)c3cc(F)ccc3o2)cc1	12.5 µg/mL	-	H37Rv	-	-	inhibition	-	0%
O=C1c2cc(Br)ccc2OP(=O)(c2ccccc2)N1c1ccc(C(F)(F)F)cc1	-	-	Praha 1	-	-	MIC	21 d	1 µM
O=C(O)c1c(C(=O)O)c2cccn2c2c1cnn2-c1ccccc1	-	-	H37Rv	-	resazurin	MIC bound	-	>6.25 µg/mL
C[C@@H]1CN(c2c(F)c(N)c3c(=O)c(C(=O)O)cn(C4CC4)c3c2F)C[C@H](C)N1	-	-	100 isolates	-	-	MIC90	-	1 µg/mL
COc1ccc2c(c1)N(C[C@H](C)CN(C)C)c1ccccc1S2	-	-	H37Rv	-	BACTEC	MIC bound	-	>12.5 µg/mL
CCc1c(CNc2cc(OC)ccc2OC)cnc2nc(N)nc(N)c12	-	-	H37Rv	-	-	MIC	-	>12.5 µg/mL
O=C(CCC(F)(F)F)N1CCC(c2ccnc(F)c2)CC1	-	-	H37Rv	THP-1	fluorescence	EC50	-	<0.05 µM
Cc1cccc(CSc2ncn[nH]2)c1	-	-	My 331/88	-	-	MIC	-	1000 µM
C[C@@H]1CN(c2c(F)c(N)c3c(=O)c(C(=O)O)cn(C4CC4)c3c2F)C[C@H](C)N1	-	-	H37Ra	-	-	Median MIC	-	0.039 µg/mL
COc1ccc(-n2c(S[Si](C)(C)C)nc3ccccc3c2=O)cc1	-	-	H37Rv	-	-	MIC	-	≤10 µg/mL
CCCOCC1(c2ccccc2)C(N)=NC(=O)N1C	-	-	H37Rv	-	BACTEC	MIC bound	-	>12.5 µg/mL
CO[C@H]1/C=C/O[C@@]2(C)Oc3c(C)c(O)c4c(O)c(c(/C=N/N5CCN(C)CC5)c(O)c4c3C2=O)NC(=O)/C(C)=C\C=C\[C@H](C)[C@H](O)[C@@H](C)[C@@H](O)[C@@H](C)[C@H](OC(C)=O)[C@@H]1C	-	-	H37Rv	-	resazurin	MIC100	-	0.05 µg/mL
CN[C@@H]1[C@H](O[C@H]2[C@H](O[C@H]3[C@H](O)[C@@H](O)[C@H](N=C(N)N)[C@@H](O)[C@@H]3N=C(N)N)O[C@@H](C)[C@]2(O)C=O)O[C@@H](CO)[C@H](O)[C@H]1O	-	-	TN2508 (001/16)	-	-	MIC	-	>2 µg/mL
Oc1cccc(Nc2cc(-c3ccccc3)nc3ccc(Cl)cc23)c1	-	-	Strain 1 (MDR)	-	-	MIC	-	4 µg/mL
CCCCc1ccc(-n2c3nc(=O)n(C)c(=O)c-3nc3ccccc32)cc1	12.5 µg/mL	-	H37Rv	-	BACTEC	inhibition	-	90%
CCC1CN(c2c(F)cc3c(=O)c(C(=O)O)cn(C4CC4)c3c2OC)CCN1	-	-	Isolate TN7829	-	-	MIC	-	0.1 µg/mL
CCOC(=O)Nc1nc(Cl)c(Cl)nc1Cl	-	-	H37Rv	-	resazurin	MIC bound	-	>6.25 µg/mL
O=C(O)c1sc(-c2ccccn2)nc1OCc1cnnn1-c1cc2ccc(O)cc2oc1=O	-	-	H37Rv	-	resazurin	MIC	-	26.97 µM
O=C(Nc1ccc(Cl)cc1)c1cc(Cl)ccc1OP(=O)(Oc1ccccc1)Oc1ccccc1	-	-	My 331/88	-	-	MIC	14 d	4 µM
CN[C@@H]1[C@H](O[C@H]2[C@H](O[C@H]3[C@H](O)[C@@H](O)[C@H](N=C(N)N)[C@@H](O)[C@@H]3N=C(N)N)O[C@@H](C)[C@]2(O)C=O)O[C@@H](CO)[C@H](O)[C@H]1O	-	-	H37Ra	-	-	Mean MIC	-	0.56 µg/mL
O=C1c2ccccc2OP(=O)(c2ccccc2)N1c1ccccc1	-	-	My 331/88	-	-	MIC	14 d	>500 µM
COc1ccc(-n2c(S[Si](C)(C)C)nc3c(I)cccc3c2=O)cc1	-	-	H37Rv	-	-	MIC	-	≤40 µg/mL
COc1cccc([C@H](c2cc3cc(C#N)ccc3nc2OC)[C@@](O)(CCN(C)C)c2ccc(C)nc2)c1OC	-	-	H37Rv	-	fluorescence	MIC90	-	>5 µg/mL
CCCNNC(=O)c1ccncc1	-	-	H37Rv	-	-	MIC	-	40 µg/mL
CCc1nnc2n1N=C(c1ccc(-c3ccccc3)cc1)CS2	-	-	H37Rv	-	BACTEC	MIC bound	-	>12.5 µg/mL
COc1cc(OC)cc(N(C)Cc2cnc3nc(N)nc(N)c3c2C)c1	-	-	H37Rv	-	-	MIC	-	3.13 µg/mL
O=C(NNC(=S)Nc1ccc(Br)cc1)c1ccncc1	-	-	INH resistant	-	-	MIC	-	2.22 µM
NC[C@@H]1O[C@H](O[C@H]2[C@@H](O)[C@H](O[C@@H]3[C@@H](O)[C@H](N)C[C@H](N)[C@H]3O[C@H]3O[C@H](CO)[C@@H](O)[C@H](O)[C@H]3N)O[C@@H]2CO)[C@H](N)[C@@H](O)[C@@H]1O	-	-	H37Ra	-	-	Mean MIC	-	5 µg/mL
CC12Oc3ccc(Cl)cc3C1(C)c1cc(Cl)ccc1O2	-	-	H37Rv	-	BACTEC	MIC bound	-	>12.5 µg/mL
Cc1c(CN2CCN(C(c3ccccc3)c3ccccc3)CC2)cc(-c2ccc(Cl)cc2)n1-c1ccc(F)cc1F	-	-	27294	-	-	MIC	-	>16 µg/mL
CO/C(=N\N=C\c1cccc(Cl)c1)c1ccncc1	0.5 µM	-	-	-	BACTEC	inhibition	-	0%
O=C(NNC(=S)Nc1ccc([N+](=O)[O-])cc1)c1ccncc1	-	-	WT	-	-	MIC	-	0.63 µM
O=[N+]([O-])c1ccccc1CSc1ncn[nH]1	-	-	My 331/88	-	-	MIC	-	>1000 µM
COc1ccc([C@](O)(CCN(C)C)[C@@H](c2cc3cc(C#N)ccc3nc2OC)c2cccc(OC)c2OC)cn1	-	-	H37Rv	-	luminescence	MIC90	-	2.1 µg/mL
CCn1cc(C(=O)O)c(=O)c2cc(F)c(N3CCNCC3)nc21	-	-	-	-	-	MIC90	-	8.3 µg/mL
S=C(S)Nc1ccccc1	-	-	H37Rv	-	BACTEC	MIC	-	≥12.5 µg/mL
O=C(CCC(F)(F)F)N1CCC(c2cncc(Cl)n2)CC1	-	-	H37Rv	THP-1	fluorescence	EC50	-	>0.05 µM
COc1ccc(/C=C/C(=O)c2c(O)cc(OC)cc2OC)cc1	-	-	H37Rv	-	-	MIC	-	>12.5 µg/mL
Cc1ccc2nc(-c3ccccc3)cc(NNC(=O)c3ccncc3)c2c1	-	-	Strain 1 (MDR)	-	-	MIC	-	>1 µg/mL
NNC(=O)Cc1ccc(Cl)c2ccccc12	-	-	H37Rv	-	BACTEC	MIC	-	≥12.5 µg/mL
O=C1c2ccccc2C(=O)c2cc(C[P+](c3ccccc3)(c3ccccc3)c3ccccc3)ccc21	-	Clinically sensitive strain	FJ05060	-	resazurin	MIC	-	1 µg/mL
CN(C)c1ccc(O)c2c1C[C@H]1C[C@H]3[C@H](N(C)C)C(=O)C(C(N)=O)=C(O)[C@@]3(O)C(=O)C1=C2O	-	-	H37Rv	-	-	Mean MIC	-	3.5 µg/mL
Cc1c(Cc2coc(C(=O)c3occ(Cc4cc(-c5ccc(Cl)cc5)n(-c5ccc(Cl)cc5)c4C)c3N3CCNCC3)c2N2CCNCC2)cc(-c2ccc(Cl)cc2)n1-c1ccc(Cl)cc1	-	-	27294	-	-	MIC	-	4 µg/mL
O=Cc1sc(-c2ccccc2)nc1OCc1cnnn1-c1cc2ccc(O)cc2oc1=O	-	-	H37Rv	-	resazurin	MIC	-	56 µM
Cn1cnnc1SCc1ccccc1	-	-	My 331/88	-	-	MIC	-	>1000 µM
O=Cc1sc(-c2ccccn2)nc1OCc1cnnn1-c1cc2ccc(O)cc2oc1=O	-	-	H37Rv	-	resazurin	MIC	-	112 µM
O=C1C(=O)c2nc3ccccc3nc2-c2ccccc21	-	-	H37Rv	VERO	BACTEC	MIC	-	12.5 µg/mL
Clc1ccc(CSc2ncn[nH]2)cc1	-	-	My 331/88	-	-	MIC	-	500 µM
O=C(/C=C/c1cccc(Cl)c1)c1ccccc1O	-	-	H37Rv	-	-	MIC	-	20.3 µg/mL
CCC(=O)c1ccc2c(c1)N(CCCN(C)C)c1ccccc1S2.O=C(O)/C=C\C(=O)O	-	-	H37Rv	-	BACTEC	MIC bound	-	>12.5 µg/mL
COc1ccc(O)c(C(=O)/C=C/c2ccco2)c1	-	-	H37Rv	-	-	MIC	-	>12.5 µg/mL
CCCNC(=O)c1c(-c2ccc(O)cc2)oc2ccc(O)c(CCCN3CCC3)c12	-	-	mc(^2)7000	-	resazurin / fluorescence	MIC	-	<0.08 µM
CCc1cc(C(N)=S)ccn1	-	-	H37Ra	-	-	Mean MIC	-	2.97 µg/mL
O=C(Nc1ccc(C(F)(F)F)cc1)c1cc(Cl)ccc1OP(=O)(c1ccccc1)c1ccccc1	-	-	My 331/88	-	-	MIC	7 d	1 µM
CCOc1c(N=Nc2ccc(Cl)cc2Cl)c(C)nn1C(=S)S	-	-	TAC-R	-	-	MIC	-	12.5 µg/mL
CCCN=C(N)c1ccc(N2CCN(c3ccccc3)CC2)cc1	-	-	H37Rv	HEP-2	-	EC50	-	3.92 µM
COC1=CC(=O)C(C)=CC1=O	128 µg/mL	-	H37Rv	-	BACTEC	inhibition	-	100%
COc1ccc2nccc(Nc3ccc(S(=O)(=O)Nc4ccnn4-c4ccccc4)cc3)c2c1	-	-	Strain 1 (MDR)	-	-	MIC	-	4 µg/mL
C1=Nc2ccccc2N=Cc2ccccc2NCCNc2ccccc21	-	-	H37Rv	-	resazurin	MIC bound	-	>6.25 µg/mL
CCNNC(=O)c1ccncc1	-	-	H37Rv	-	-	MIC	-	40 µg/mL
Cc1csc2n/c(=N/[N+](=O)[O-])sn12	6.25 µg/mL	-	H37Rv	-	resazurin	inhibition	-	92%
CC(C)(C)c1ccc(N2CCN(Cc3ccc([N+](=O)[O-])o3)CC2)cc1	-	Rifampicin-resistant	RifR	-	resazurin	MIC	-	0.072 µM
O=C1CCCNn2c(nc3ncccc3c2=O)N1	6.25 µg/mL	-	H37Rv	-	resazurin	inhibition	-	1%
O=C(CCC(F)(F)F)N1CCC(c2cncc(Cl)c2)CC1	-	-	H37Rv	THP-1	fluorescence	EC50	-	<0.05 µM

7 of the rows above, restated:

SMILES,dose,changes,strain,cell line,read by,read-out,setting,value
CCCOCC1(c2ccccc2)C(N)=NC(=O)N1C,-,-,H37Rv,-,BACTEC,MIC bound,-,>12.5 µg/mL
CC(C)(C)c1ccc(N2CCN(Cc3ccc([N+](=O)[O-])o3)CC2)cc1,-,Rifampicin-resistant,RifR,-,resazurin,MIC,-,0.072 µM
CCNNC(=O)c1ccncc1,-,-,H37Rv,-,-,MIC,-,40 µg/mL
C1=Nc2ccccc2N=Cc2ccccc2NCCNc2ccccc21,-,-,H37Rv,-,resazurin,MIC bound,-,>6.25 µg/mL
Cn1cnnc1SCc1ccccc1,-,-,My 331/88,-,-,MIC,-,>1000 µM
NNC(=O)c1ccncc1,-,-,H37Rv,-,resazurin,MIC,-,0.66 µM
Oc1cccc(Nc2cc(-c3ccccc3)nc3ccc(Cl)cc23)c1,-,-,Strain 1 (MDR),-,-,MIC,-,4 µg/mL